# Results: PubChem BioAssay AID2606 (The Scripps Research Institute Molecular Screening Center, 2010)
# Chains of the proteins cited; added tags and fusions are not shown. Lines headed by an entry give the natural chain unless they say otherwise; changes in a name come on top.
# UniProt P9WHR9: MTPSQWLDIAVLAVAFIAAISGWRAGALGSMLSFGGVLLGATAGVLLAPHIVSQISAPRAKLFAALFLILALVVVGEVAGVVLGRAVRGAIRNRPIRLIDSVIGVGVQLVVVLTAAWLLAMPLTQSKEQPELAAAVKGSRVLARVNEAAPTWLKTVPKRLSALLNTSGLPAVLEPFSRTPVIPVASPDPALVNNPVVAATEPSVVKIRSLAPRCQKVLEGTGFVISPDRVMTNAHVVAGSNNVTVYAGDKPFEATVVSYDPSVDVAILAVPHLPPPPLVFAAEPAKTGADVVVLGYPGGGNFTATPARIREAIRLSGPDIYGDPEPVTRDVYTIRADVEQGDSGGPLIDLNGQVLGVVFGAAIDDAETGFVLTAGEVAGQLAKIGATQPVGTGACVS
# This is a selection; strong and weak results do not stand in their true shares. Calls of active or inactive are those of the source. No stated cut-off is given here; in the data, active means inhibition above about 38%; inactive means the rest.
# Target: Serine protease Rv3671c (Mycobacterium tuberculosis (strain ATCC 25618 / H37Rv)) (UniProt P9WHR9)
# Test: inhibition of M. tuberculosis membrane protease Rv3671c – biochemical, fluorescence polarization, M. tuberculosis H37Rv, primary screen (AID 2606);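 further: extracellular domain of Rv3671c used as enzyme; 0% = enzyme with DMSO and 100% = no enzyme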
# Conditions: at 5.96 µM; hits give high values
row,SMILES,inhibition
1,CC(C)c1ccc(OP(=O)(Nc2ccccn2)Oc2ccccc2F)cc1 (stereo not given),inactive: 2.91%
2,ClCCSc1nnc(-c2cccnc2)o1,inactive: -9.01%
3,O=[N+]([O-])c1cc([N+](=O)[O-])c(-c2ccn[nH]2)s1,inactive: -9.42%
4,CC(C)NC(=O)NP(=O)(Oc1ccccc1)Oc1ccccc1,inactive: -6.05%
5,CCN(CC)C(=S)SC(NC=O)C(Cl)(Cl)Cl (stereo not given),inactive: -3.44%
6,COc1cc(C(=O)NCC2(N3CCOCC3)CCCCC2)ccc1OCC(C)C,inactive: -0.58%
7,C[As](=O)(O)c1cccc(C(=O)O)c1,inactive: -11.3%
8,O=[As](O)(c1ccc(O)cc1)c1ccccc1O,inactive: 0.01%
9,Cc1ccc2nc3c(c(C)c2c1)CC(C(Cl)Cl)S3 (stereo not given),inactive: -13.2%
10,Cc1ccc(OP(=O)(Nc2ccc([N+](=O)[O-])cn2)Oc2ccc(C)cc2)cc1,inactive: -8.56%
11,COc1ccc(N/C(=N/P(=O)(N2CCOCC2)N2CCOCC2)N2CCOCC2)cc1,inactive: -0.8%
12,Cc1cc(=O)[nH]c(N[N+](=O)[O-])n1,inactive: 2.5%
13,O=C(OC1CN2CCC1CC2)C12CC3CC(CC(C3)C1)C2 (stereo not given),inactive: -4.91%
14,Cc1c2c(nc3ccccc13)SC(C(Cl)Cl)C2 (stereo not given),inactive: 9.17%
15,COc1cc(I)ccc1[As](=O)(O)O,inactive: -2.8%
16,COc1ccc2nc(NP(=O)(c3ccccc3)c3ccccc3)sc2c1,inactive: -2.12%
17,CCOC(=O)c1ccc(NC(=O)C(C)(CCl)SC)cc1 (stereo not given),inactive: -5.65%
18,O=C(OC1CN2CCC1CC2)c1cccc([N+](=O)[O-])c1 (stereo not given),inactive: 4.68%
19,CCC(C)N(CC(C)C)C(=S)SC(NC(C)=O)C(Cl)(Cl)Cl (stereo not given),inactive: 1.73%
20,COP1(=S)c2c(C)nn(CCC#N)c2N=C(c2ccc(F)cc2)N1C (stereo not given),inactive: -8.1%
21,O=C(Nc1ccncc1[N+](=O)[O-])c1ccc([N+](=O)[O-])cc1[N+](=O)[O-],inactive: -6.49%
22,O=C(COc1ccccc1)OC1CN2CCC1CC2 (stereo not given),inactive: -0.34%
23,CCOC(=O)Nc1cccc([As](=O)(O)O)c1,inactive: -2.79%
24,O=P(Nc1ccccn1)(c1cccc2ccccc12)c1cccc2ccccc12,inactive: 6.13%
25,Cc1cc(SC(NC=O)C(Cl)(Cl)Cl)ncn1 (stereo not given),inactive: 5.39%

row,SMILES,inhibition
1,CCOC(=O)Nc1ccc([As](=O)(O)O)c(O)c1,inactive: 5.67%
2,Cc1cc(SC(NC(=O)c2ccccc2)C(Cl)(Cl)Cl)nc(C(C)C)n1 (stereo not given),inactive: 6.94%
3,O=P1(Nc2ncccn2)COc2ccccc2OC1,inactive: 2.81%
4,O=[As](O)(c1cccs1)c1cccs1,inactive: 1.29%
5,Cc1ccc(OCC(=O)OC2CN3CCC2CC3)cc1 (stereo not given),inactive: -1.04%
6,O=P1(Nc2ccc(Br)cn2)COc2ccccc2OC1,inactive: 1.11%
7,NS(=O)(=O)c1cccc(NC(=O)COC(=O)C(O)(c2ccccc2)c2ccccc2)c1,inactive: 4.28%
8,Nc1cccc([As](=O)(O)c2ccccc2)c1,inactive: 8.07%
9,CC1CCC(C(C)C)C(OP(=O)(Nc2ccccn2)c2ccccc2)C1 (stereo not given),inactive: 6.73%
10,Cc1ccc(C(=O)OC2CN3CCC2CC3)cc1 (stereo not given),inactive: -10.4%
11,Cc1nn(-c2ccccc2)c2c1P(=O)(N1CCOCC1)N(C)C(c1ccccc1)=N2 (stereo not given),inactive: -4.92%
12,O=C(/C=C/c1ccccc1)OC1CN2CCC1CC2 (stereo not given),inactive: -5.68%
13,CN(C)C1(CNC(=O)c2ccc(S(C)(=O)=O)cc2)CCCCC1,inactive: -3.02%
14,COc1ccccc1CNC(=O)COC(=O)C(O)(c1ccccc1)c1ccccc1,inactive: 1.68%
15,CC1(CBr)Cn2c(nc3ccccc3c2=O)S1 (stereo not given),inactive: -2.08%
16,O=[As](O)(c1ccccc1Br)c1ccccc1Br,inactive: -1.65%
17,CC(C)/C=N\N=C(\N)N[N+](=O)[O-],inactive: 1.04%
18,CN(C(=O)Cc1ccc(Cl)c(Cl)c1)[C@@H]1CCCC[C@H]1N1CCCC1,inactive: 12.3%
19,CCOP(=O)(Nc1ccc(C)cn1)OCC,inactive: -4.38%
20,CN(CCCl)Cc1cc(Cl)c(NC2=NCCN2)c(Cl)c1,inactive: -1.22%
21,CCOP(=O)(NC(=NC(C)c1ccccc1)NC(C)c1ccccc1)OCC (stereo not given),inactive: -7.3%
22,O=P1(Nc2ccccn2)COc2ccccc2OC1,inactive: -7.47%
23,CCC1=CC2Cc3nc4ccc(Cl)cc4c(N)c3C(C1)C2 (stereo not given),inactive: 1.97%
24,CC(C)(C)C(=O)NC(Sc1ncccn1)C(Cl)(Cl)Cl (stereo not given),inactive: 0.49%
25,Clc1n[nH]nc1-c1nn[nH][15n]1,inactive: 3.19%
